Data as given in PubChem BioAssay AID624099 (ICCB-Longwood, 2012)
Screen: 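Human genes that papillomavirus E2 requires to repress the HPV18 LCR promoter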 (primary screen). System: human C33A cervical carcinoma cells (HPV-negative) stably expressing BPV1 E2 and an HPV18 LCR luciferase reporter. Knock-down reagent: siRNA pool against human genes, 40 nM. Duration: 72 h. Measured: 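HPV18 LCR reporter light per well, converted to plate-wise z-scores that exclude control wells, and averaged over triplicate plates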. Scale: mean z-score and z-score: higher = stronger reporter signal, weaker E2 silencing. Rule for the call: 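Hit if mean z-score reaches 2 and two or more of three replicate z-scores also reach 2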.
Here is one part, drawn at random, of about 21,000 reagents. 497 of all reagents (2.4%) were called active. 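Higher z means weaker E2 silencing; only reporter increases were scored, and knock-downs that hurt cell survival may mask genuine repressor factors.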 No sequences are given here.

gene symbol | mean z-score | z-score, replicate A | z-score, replicate B | z-score, replicate C | activity call
NXF2 | 0.26 | -0.04 | 0.31 | 0.52 | inactive
SELENOS | -0.05 | -0.45 | 0.17 | 0.13 | inactive
USP32 | -0.21 | -0.82 | 0.05 | 0.14 | inactive
PCDHGB1 | -0.83 | -0.99 | -0.93 | -0.56 | inactive
MAB21L4 | -0.36 | -0.13 | -0.52 | -0.44 | inactive
SCLY | -0.98 | -0.73 | -1.33 | -0.89 | inactive
RPL6P22 | -5.77 | -5.71 | -5.85 | -5.75 | inactive
OMA1 | -0.17 | -0.11 | -0.21 | -0.18 | inactive
RDX | -0.94 | -1.07 | -1.33 | -0.43 | inactive
ASPM | 0.46 | 0.76 | 0.37 | 0.26 | inactive
IAH1 | 0.4 | 0.28 | 0.39 | 0.54 | inactive
SMIM7 | 1.16 | 1.26 | 1.23 | 1.01 | inactive
SLIT2 | 0.65 | 0.58 | 0.77 | 0.61 | inactive
ULBP3 | -0.43 | -0.79 | -0.17 | -0.34 | inactive
PPP2R5B | 0.8 | 0.84 | 0.74 | 0.82 | inactive
IDS | 2.31 | 2.5 | 2.17 | 2.26 | active
PDPR | -1.96 | -2.22 | -2.05 | -1.6 | inactive
E2F7 | 0.78 | 0.53 | 1.1 | 0.71 | inactive
CEACAM4 | 1.61 | 1.75 | 1.14 | 1.93 | inactive
RDH8 | -0.92 | -0.85 | -1.18 | -0.72 | inactive
LBHD1 | 0.21 | 0.29 | 0.42 | -0.08 | inactive
TRABD2B | 0.65 | 0.5 | 0.65 | 0.79 | inactive
DCUN1D3 | 0.58 | 0.82 | 0.49 | 0.42 | inactive

Reformatted: entries from further up.
gene symbol	mean z-score	z-score, replicate A	z-score, replicate B	z-score, replicate C	activity call
PDPR	-1.96	-2.22	-2.05	-1.6	inactive
E2F7	0.78	0.53	1.1	0.71	inactive
